Compound potency records, mixed from different reports. Data source: NIAID ChemDB in PubChem.

Common to all: tests in culture; species: Mycobacterium kansasii

Zone: diameter of growth inhibition. Blank or dashed fields: not listed here. A number after MIC or MFC names an inhibition level or a share of isolates. Conditions beyond the fields shown may differ between rows.

SMILES,strain or isolate,read by,setting,measure,tested at,result
CC(=O)NC[C@H]1CN(c2ccc(N3CCOCC3)c(F)c2)C(=O)O1,104 clinical isolates,,,MIC50,,0.5 µg/mL
Cc1cc(NS(=O)(=O)c2ccc(NC(=O)N3CCC3)cc2)no1,6509/96 clinical isolate,broth dilution / absorbance,21 d,MIC100,,16 µM
O=C1c2cc(Cl)ccc2OP(=O)(c2ccccc2)N1c1ccc(C(F)(F)F)cc1,My 235/80,,14 d,MIC,,8 µM
CCCCCCNC(=O)Nc1ccc(S(=O)(=O)Nc2cc(C)on2)cc1,6509/96 clinical isolate,broth dilution / absorbance,7 d,MIC100,,125 µM
CC(C)=CCC/C(C)=C/CNCCNC1C2CC3CC(C2)CC1C3,ATCC 35775,agar diffusion,,zone,100 µg/disc,55 mm
Cc1cc(NS(=O)(=O)c2ccc(NC(=O)N(C(C)C)C(C)C)cc2)no1,235/80,broth dilution / absorbance,14 d,MIC100,,250 µM
O=C(Nc1ccccc1)c1ccccc1OP(=O)(Oc1ccccc1)c1ccccc1,My 235/80,,7 d,MIC,,500 µM
Cc1cc(NS(=O)(=O)c2ccc(NC(=O)Nc3ccc(S(=O)(=O)Nc4cc(C)on4)cc3)cc2)no1,235/80,broth dilution / absorbance,14 d,MIC100,,2 µM
CC(C)(C)c1cnc(C(=O)/C=C/c2ccc(F)cc2)cn1,Hauduroy,absorbance,,MIC,,>25 µg/mL
O=C(Nc1ccc(Cl)c(Cl)c1)c1cc(Cl)ccc1OP(=O)(OCc1ccccc1)OCc1ccccc1,My 235/80,,21 d,MIC,,62.5 µM
CCCN(CCC)C(=O)c1cc(C)cc(C(=O)N[C@@H]([C@@H](O)CNCc2cccc(I)c2)C(F)(F)c2ccccc2)c1,262,agar diffusion,,zone,100 µg/disc,0 mm
O=C(/C=C/c1ccccc1Cl)c1cnccn1,Hauduroy,absorbance,,MIC,,25 µg/mL
O=C(N[C@@H]([C@H](O)CNCc1cccc(I)c1)C(F)(F)c1ccccc1)OCc1ccccc1,ATCC 35775,broth dilution,,MIC,,32 µg/mL
CC(C)(C)c1cnc(C(=O)/C=C/c2ccccc2Cl)cn1,Hauduroy,absorbance,,MIC,,25 µg/mL
CCCCCCCCCCNC(=O)Nc1ccc(S(=O)(=O)Nc2cc(C)on2)cc1,6509/96 clinical isolate,broth dilution / absorbance,21 d,MIC100,,125 µM
O=C1c2cc(Cl)ccc2OP(=O)(c2ccccc2)N1c1ccc(Cl)cc1,My 6509/96,,21 d,MIC,,16 µM
O=C(/C=C/c1ccc(Cl)cc1)c1cnccn1,Hauduroy,absorbance,,MIC,,6.25 µg/mL
O=C(Nc1ccc(Br)cc1)c1cc(Cl)ccc1OP(=O)(Oc1ccccc1)c1ccccc1,My 6509/96,,7 d,MIC,,8 µM
O=C(N[C@H]([C@@H](O)CNCc1cccc(I)c1)C(F)(F)c1ccccc1)OCc1ccccc1,T,broth dilution,,MIC,,>256 µg/mL
O=C(Nc1ccc(C(F)(F)F)cc1)c1cc(Br)ccc1OP(=O)(Oc1ccccc1)Oc1ccccc1,My 6509/96,,14 d,MIC,,4 µM
CCCN(CCC)C(=O)c1cc(C)cc(C(=O)N[C@@H](Cc2cc(F)cc(F)c2)[C@H](O)CNCc2cccc(I)c2)c1,ATCC 35775,agar diffusion,,zone,100 µg/disc,17 mm
O=C(Nc1ccc(Br)cc1)c1cc(Cl)ccc1OP(=O)(c1ccccc1)c1ccccc1,My 6509/96,,21 d,MIC,,8 µM
CCCc1cnc(C(=O)/C=C/c2ccc(Cl)cc2)cn1,Hauduroy,absorbance,,MIC,,12.5 µg/mL

The last 2 rows once more:

| SMILES | strain or isolate | read by | setting | measure | tested at | result |
|---|---|---|---|---|---|---|
| O=C(Nc1ccc(Br)cc1)c1cc(Cl)ccc1OP(=O)(c1ccccc1)c1ccccc1 | My 6509/96 |  | 21 d | MIC |  | 8 µM |
| CCCc1cnc(C(=O)/C=C/c2ccc(Cl)cc2)cn1 | Hauduroy | absorbance |  | MIC |  | 12.5 µg/mL |